Results deposited as PubChem BioAssay AID504761 (Drosophila RNAi Screening Center, 2011)
In all, the deposit lists about 22,000 reagents; this is a random part of those with a known target gene and a result. Over the whole deposit, 116 (0.52%) were called active. 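Calls depend on retest data that are not deposited; infection was ranked per plate without normalising between plates; the unit of the infection score is not given.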 The raw values are shown without normalisation. A plus sign joins genes that one reagent is predicted to hit. The record does not give: the amount of reagent, the time to read-out.

- Screen: 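Insect host genes that dengue virus relies on to spread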 (primary screen)
- System: D.Mel-2 cells from Drosophila
- Knock-down reagent: long dsRNA against Drosophila genes
- Treatment: infection with dengue virus type 2; dose and infection time not stated
- Read-out: 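Cells stained for dengue envelope protein and imaged; percent of infected cells per well on duplicate plates, ranked by infection, with stained nuclei counted for cell number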
- Reading the numbers: infection score: higher = more virus-infected cells; cell count: higher = more cells in the well
- Rule for the call: 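Low infection ranks in the two replicates (chance level up to 0.065) followed by a retest with a 1.5-fold or larger significant decrease, p below 0.05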
- Meaning of the calls: active = confirmed: knock-down lowers infection; inactive = not picked or not confirmed

| infection score, replicate 1 | infection score, replicate 2 | cell count, replicate 1 | cell count, replicate 2 | Call | predicted target | dsRNA |
| --- | --- | --- | --- | --- | --- | --- |
| 4.24 | 35.4 | 6292 | 6143 | inactive | Larp4B (La-related protein 4B) | DRSC23201 |
| 1.08 | 1.85 | 557 | 595 | inactive | Larp4B (La-related protein 4B) | DRSC29411 |
| 6.83 | 4.19 | 6555 | 6523 | inactive | CG32511 (retired record) | DRSC20697 |
| 3.68 | 4.04 | 6413 | 6259 | inactive | CG14367 | DRSC14829 |
| 18 | 6.86 | 5961 | 6864 | inactive | Cyp6a15Psi (pseudo) | DRSC07377 |
| 13.3 | 17.2 | 5490 | 4996 | inactive | Cyp6a15Psi (pseudo) | DRSC28316 |
| – | 0.27 | 338 | 375 | inactive | CG9717 | DRSC16543 |
| 24.5 | 7.53 | 5070 | 6944 | inactive | CG10254 | DRSC14153 |
| – | – | 323 | 288 | inactive | CG10254 | DRSC29495 |
| 0.68 | 0.67 | 6310 | 3896 | inactive | CG42372 + CG30100 | DRSC05602 |
| 7.78 | 5.16 | 6539 | 6440 | inactive | Jarid2 (Jumonji, AT rich interactive domain 2) | DRSC10372 |
| 28 | 1.39 | 1937 | 789 | inactive | Dh31-R (Diuretic hormone 31 Receptor) | DRSC06669 |
| 4.42 | 6.33 | 6356 | 6242 | inactive | Dh31-R (Diuretic hormone 31 Receptor) | DRSC23417 |
| 3.69 | 0.63 | 6016 | 6530 | inactive | CG11044 | DRSC06026 |
| 3.38 | 3.17 | 6421 | 6489 | inactive | CG11044 | DRSC27143 |
| 1.86 | 6.25 | 6091 | 6195 | inactive | CG6083 | DRSC10580 |
| 8.2 | 7.08 | 5501 | 5720 | inactive | CG6083 | DRSC24586 |
| 6.8 | 4.98 | 6116 | 6064 | inactive | Nep6 (Neprilysin 6) | DRSC19877 |
| 11.6 | 11.6 | 6302 | 6391 | inactive | GstD1 (Glutathione S transferase D1) | DRSC16683 |
| 5.34 | 2.33 | 5595 | 6660 | inactive | GstD1 (Glutathione S transferase D1) | DRSC27603 |
| 1.62 | 2.09 | 6402 | 6875 | inactive | rhea | DRSC11300 |
| 7.67 | 7.17 | 1369 | 2009 | inactive | nsl1 (non-specific lethal 1) | DRSC15625 |
| 3.38 | 9.24 | 6099 | 6006 | inactive | vis + achi | DRSC07277 |
| 4.93 | 3.19 | 5574 | 5923 | inactive | Eig71Ek | DRSC11158 |
| 0.03 | 0.11 | 6507 | 6552 | active | CG33255 (retired record) + hpRNA:CR32205 + hpRNA:CR32207 | DRSC09617 |
| 4.79 | 7.21 | 5928 | 6754 | inactive | CG10730 | DRSC02102 |
| 1.17 | 2.82 | 5967 | 6125 | inactive | CG10730 | DRSC24841 |
| 0.81 | 2.2 | 5464 | 5421 | inactive | RasGAP1 (Ras GTPase activating protein 1) | DRSC11172 |
| 10.2 | 5.07 | 6312 | 6902 | inactive | CG8138 | DRSC16386 |
| 1.42 | 4.54 | 5757 | 4822 | inactive | CG15071 | DRSC06504 |
| 23.4 | 11 | 5524 | 3110 | inactive | CG15071 | DRSC28329 |
| 4.26 | 4.8 | 6218 | 6502 | inactive | IFT52 (Intraflagellar transport 52) | DRSC03271 |
| 12.6 | 2.37 | 3098 | 1267 | inactive | IFT52 (Intraflagellar transport 52) | DRSC28697 |
| 1.75 | 5.71 | 5782 | 5885 | inactive | lin-28 | DRSC10261 |
| 3.89 | 1.26 | 6486 | 6405 | inactive | CG15098 | DRSC06527 |
| 40.5 | 40.8 | 5818 | 5064 | inactive | CG15098 | DRSC29966 |
| 8.05 | 21.3 | 6537 | 5756 | inactive | Socs44A (Suppressor of Cytokine Signaling at 44A) | DRSC06828 |
| 1.97 | 2.64 | 6404 | 6206 | inactive | CG42366 | DRSC02760 |
| 3.27 | 2.39 | 6455 | 6858 | inactive | CG42366 | DRSC23297 |
| 29.7 | 23.5 | 5228 | 6032 | inactive | Taf7 (TBP-associated factor 7) | DRSC15445 |
| 3.18 | 14.3 | 6265 | 6041 | inactive | Taf7 (TBP-associated factor 7) | DRSC26720 |
| 9.27 | 6.36 | 5941 | 1479 | inactive | CG15468 | DRSC18051 |
| 17 | 8.04 | 5448 | 3034 | inactive | CG6357 | DRSC06979 |
| 16.5 | 28.8 | 6545 | 5725 | inactive | az2 | DRSC07580 |
| 3.99 | 4.44 | 6018 | 6189 | inactive | Ptip (PAX transcription activation domain interacting protein) | DRSC10660 |
| 1.56 | 1.68 | 4491 | 5183 | inactive | Ptip (PAX transcription activation domain interacting protein) | DRSC11048 |
| 2.02 | 11.7 | 6488 | 3439 | inactive | lncRNA:CR32730 (long non-coding RNA:CR32730) | DRSC22957 |
| – | – | 290 | 268 | inactive | CG15506 | DRSC15047 |
| 8.77 | 12.1 | 6808 | 6772 | inactive | sals (sarcomere length short) | DRSC14925 |
| 4.72 | 7.16 | 5870 | 6532 | inactive | sals (sarcomere length short) | DRSC16113 |
| 14.1 | 5.49 | 4732 | 3354 | inactive | sals (sarcomere length short) | DRSC28473 |
| 15.6 | 6.7 | 7075 | 5867 | inactive | CG1602 | DRSC06601 |
| 1.85 | 1.25 | 6112 | 5434 | inactive | CG32536 + CG32537 | DRSC20074 |
| 3.24 | 0.89 | 6355 | 6502 | inactive | Vml (Vitelline membrane-like) | DRSC17695 |
| 0.9 | 3.87 | 6354 | 6130 | inactive | Vml (Vitelline membrane-like) | DRSC18529 |
| 0.2 | – | 492 | 453 | inactive | Vml (Vitelline membrane-like) | DRSC28030 |
| – | 20.3 | 393 | 5410 | inactive | Vml (Vitelline membrane-like) | DRSC29208 |
| 20.1 | 7.4 | 6206 | 6379 | inactive | pnr (pannier) | DRSC17027 |
| 4.23 | 2.37 | 5739 | 5823 | inactive | pnr (pannier) | DRSC25347 |

5 entries from above, arranged by “cell count, replicate 2”, descending:
| infection score, replicate 1 | infection score, replicate 2 | cell count, replicate 1 | cell count, replicate 2 | Call | predicted target | dsRNA |
| --- | --- | --- | --- | --- | --- | --- |
| 1.62 | 2.09 | 6402 | 6875 | inactive | rhea | DRSC11300 |
| 5.34 | 2.33 | 5595 | 6660 | inactive | GstD1 (Glutathione S transferase D1) | DRSC27603 |
| 11.6 | 11.6 | 6302 | 6391 | inactive | GstD1 (Glutathione S transferase D1) | DRSC16683 |
| 6.8 | 4.98 | 6116 | 6064 | inactive | Nep6 (Neprilysin 6) | DRSC19877 |
| 8.2 | 7.08 | 5501 | 5720 | inactive | CG6083 | DRSC24586 |
